In the series the test system is panel of human tumour cell lines (NCI 60 cell-line panel). The conditions noted are these: preliminary single dose (10 μM) testing. An excerpt: Protocols of testing at the DTP, NCI have been described elsewhere.

This note sets out measurements from paper PMC7460216 (Marine Drugs, 2020).

Regarding `O=C1C2=C3C4=[N+](CCc5c[nH]c1c54)C1(O)CCC3(CCN2)CC1` [Compound 7, Discorhabdin C Hydrogenation Product], the “delta of mean growth” value was 37.53 and the range of growth is on record as 59.64.
